Compound potency records, mixed from different reports. Data source: NIAID ChemDB in PubChem.

All rows: whole-cell or culture tests; organism: Candida albicans; endpoint: inhibition

Percent inhibition refers to the dose given; in toxicity tests it is the harm to the cells.

smiles,tested at,read by,strain,changes,result
CC(=O)OC[C@H]1O[C@@H](O[C@@H]2[C@@H](N=[N+]=[N-])[C@H](O)[C@H](O)[C@H]3OC(C)(C)O[C@H]32)[C@H](OC(C)=O)[C@@H](OC(C)=O)[C@H]1OC(C)=O,62.5 µg/mL,broth dilution / turbidity,ATCC 10231,-,20.01%
NCCCC[C@H](NC(=O)[C@H](Cc1c[nH]c2ccccc12)NC(=O)[C@H](CCCCN)NC(=O)[C@@H](N)CCCCN)C(=O)O,200 µM,-,ATCC 10231,-,9%
C[C@H]1[C@H](O)[C@@H](C)/C=C/C=C/C=C/C=C/C=C/C=C/C=C/[C@H](O[C@@H]2O[C@H](C)[C@@H](O)[C@H](N)[C@@H]2O)C[C@@H]2O[C@](O)(C[C@@H](O)C[C@@H](O)CC[C@H](O)[C@@H](O)C[C@@H](O)CC(=O)O[C@H]1C)C[C@H](O)[C@H]2C(=O)O,1 µg/mL,broth dilution,SC5314,-,100%
CC(C)(O)c1cn(-c2ccc([N+](=O)[O-])cc2)nn1,2048 µg/mL,broth dilution,URM 4990,-,0%
COc1ccc(CC(c2ccc(OC)cc2)n2ccnc2)cc1,256 µg/mL,-,28 strains,-,100%
OC(Cn1cncn1)c1ccc(F)cc1F,80 µg/mL,broth dilution,Fluconazole-resistant,-,24%
CC(C)(O)c1cn(-c2ccc3ccccc3c2)nn1,2048 µg/mL,broth dilution,URM 4260,-,0%
COc1ccc(C(O)C(Cc2ccc(Cl)cc2Cl)c2ccc(Cl)cc2)cc1,256 µg/mL,-,28 strains,-,0%
O=C(Cn1cncn1)c1ccc([N+](=O)[O-])cc1,100 µg/mL,broth dilution,Fluconazole-resistant,-,23%
COc1ccc(CC(=O)c2ccc(OC)cc2)cc1,256 µg/mL,-,28 strains,-,0%
COc1ccc(C(=O)Cn2ccnc2)cc1,100 µg/mL,broth dilution,Fluconazole-resistant,-,79%
COc1ccc(C(Cc2ccc(Cl)cc2)n2cnnc2)cc1,256 µg/mL,-,28 strains,-,100%
CC(C)(O)c1cn(-c2cccc3ccccc23)nn1,2048 µg/mL,broth dilution,URM 4260,-,0%
C[C@H]1[C@H](O)[C@@H](C)/C=C/C=C/C=C/C=C/C=C/C=C/C=C/[C@H](O[C@@H]2O[C@H](C)[C@@H](O)[C@H](N)[C@@H]2O)C[C@@H]2O[C@](O)(C[C@@H](O)C[C@@H](O)CC[C@H](O)[C@@H](O)C[C@@H](O)CC(=O)O[C@H]1C)C[C@H](O)[C@H]2C(=O)O,1 µg/mL,broth dilution,ATCC 90028,efg1 (EFG1),100%
Cc1ccc(-n2cc(C(C)(C)O)nn2)cc1C,2048 µg/mL,broth dilution,URM 4606,-,0%
Cc1cc(C=Nc2ccc(N=Cc3cc(C)cc(/C=N/Nc4nc5ccccc5s4)c3O)cc2)c(O)c(/C=C/Nc2nc3ccccc3s2)c1,25 µg/mL,turbidity,-,-,6.76%

For reference, 2 entries again:

{"smiles": "CC(C)(O)c1cn(-c2ccc3ccccc3c2)nn1", "tested at": "2048 µg/mL", "read by": "broth dilution", "strain": "URM 4260", "result": "0%"}
{"smiles": "C[C@H]1[C@H](O)[C@@H](C)/C=C/C=C/C=C/C=C/C=C/C=C/C=C/[C@H](O[C@@H]2O[C@H](C)[C@@H](O)[C@H](N)[C@@H]2O)C[C@@H]2O[C@](O)(C[C@@H](O)C[C@@H](O)CC[C@H](O)[C@@H](O)C[C@@H](O)CC(=O)O[C@H]1C)C[C@H](O)[C@H]2C(=O)O", "tested at": "1 µg/mL", "read by": "broth dilution", "strain": "ATCC 90028", "changes": "efg1 (EFG1)", "result": "100%"}

Blank or dashed fields: not listed here. Rows are shuffled and stem from different studies.